Anti-infective test results gathered from many reports (values: NIAID ChemDB through PubChem).

Common to all: growth or infection tests; organism: HIV-1; cells: PBMC; endpoint: EC50

ECn is the concentration giving n% inhibition of infection, replication or growth.

structure	strain or isolate	changes	method	setting	result
C=CCN(C(=O)NCc1ccc(C(F)(F)F)cc1)C1CCN([C@H]2CN(C(=O)C3CCCC3)C[C@]2(O)c2ccccc2)CC1			p24 / ELISA		<0.005 µM
O=C(O)[C@@H](C1CCCCC1)N1C[C@H](CN2CCC(CCCc3ccccc3)CC2)[C@@H](c2ccccc2)C1	BaL				0.077 µM
Cc1ccnc2c1NC(=O)c1cccnc1N2C1CC1	BaL		p24		0.1 µM
COc1ccc(S(=O)(=O)N(CC(C)C)C[C@@H](O)[C@H](Cc2ccccc2)NC(=O)O[C@H]2CO[C@H]3OCC(F)(F)[C@H]32)cc1	ERS104pre	L63P			0.0023 µM
Cc1ccc(-c2ccc3c(c2)C=C(C(=O)Nc2ccc(C[N+](C)(C)C4CCOCC4)cc2)CCC3)cc1	JR-FL R5		p24		0.005 µM
Nc1nc(NC2CC2)c2ncn([C@H]3C=C[C@@H](CO)C3)c2n1	WEJO		p24		0.06 µM
CC(C)(C)NC(=O)[C@@H]1C[C@@H]2CCCC[C@@H]2CN1C[C@@H](O)[C@H](Cc1ccccc1)NC(=O)[C@H](CC(N)=O)NC(=O)c1ccc2ccccc2n1	Clinical isolate	L10I K14R L33I M36I M46I F53I K55R I62V L63P A71V G73S V82A L90M I93L		multidrug-resistant	0.35 µM
CCCCN1C(=O)C(CC2CCCCC2)NC(=O)C12CCN(Cc1ccc3c(c1)OCCO3)CC2	JR-FL R5		p24		0.081 µM
Cc1ccccc1CNC(=O)[C@H]1N(C(=O)[C@@H](O)[C@H](Cc2ccccc2)NC(=O)c2cccc(O)c2C)CSC1(C)C	1026-40 PI-resistant	PR-L10I M46I I54V L63P A71V V82A L90M	RT activity		0.103 µM
Cc1cn([C@H]2C[C@H](N=[N+]=[N-])[C@@H](CO)O2)c(=O)[nH]c1=O	ROJO		RT activity		0.14 µM
CC[C@@]1(O)C(=O)OCc2c1cc1n(c2=O)Cc2cc3cc(O)ccc3nc2-1	KM018		p24 / antigen		0.0105 µg/mL
Cc1cn([C@H]2C[C@H](N=[N+]=[N-])[C@@H](CO)O2)c(=O)[nH]c1=O	2:DR1 AZT-resistant		RT activity		2 µM
C=CCN(C(=O)OCc1ccc(S(C)(=O)=O)cc1)C1CCN(C[C@H]2CN(C(=O)C3CCCC3)C[C@]2(O)c2ccccc2)CC1			p24		<0.005 µM
CCCCN1C(=O)[C@@H]([C@H](O)C2CCCCC2)NC(=O)C12CCN(Cc1ccc(Oc3ccc(C(=O)O)cc3)cc1)CC2	NL4-3 X4		p24		>1 µM
COC(=O)N[C@H](C(=O)N[C@@H](Cc1ccccc1)[C@@H](O)CN(Cc1ccc(-c2ccccn2)cc1)NC(=O)[C@@H](NC(=O)OC)C(C)(C)C)C(C)(C)C	ERS104pre	L63P			0.0021 µM
Nc1ncnc2c1ncn2[C@@H]1CC[C@H](CO)O1					8.2 µM
O=C(O)[C@@H](C1CCCCC1)N1C[C@H](CN2CCC(O)(CCCc3ccccc3)CC2)[C@@H](c2ccccc2)C1	BaL				0.187 µM
CC(C)[C@H](NC(=O)c1ccc2ccccc2n1)C(=O)N[C@@H](Cc1ccccc1)[C@H](O)CN1CC[C@@H](OCc2ccncc2)C[C@H]1C(=O)NC(C)(C)C	Nevirapine-resistant		p24		0.0036 µM
Nc1ncnc2c1ncn2[C@@H]1C=C[C@H](CO)O1	LAV		RT activity		0.38 µM
Cc1cn([C@H]2C[C@H](N=[N+]=[N-])[C@@H](COP(=O)(OCCC#N)OC[C@@H]3CC[C@H](n4cnc5c(N)ncnc54)O3)O2)c(=O)[nH]c1=O	LAV		RT activity		0.00015 µM
C=CCN(C(=O)NCc1ccc(C(F)(F)F)cc1)C1CCN(C[C@H]2CN(C(=O)C3CCCC3)C[C@]2(O)c2ccccc2)CC1			p24		<0.005 µM
Cc1cn([C@H]2C[C@H](N=[N+]=[N-])[C@@H](CO)O2)c(=O)[nH]c1=O	LAV		RT activity		0.0039 µM
Nc1nc2c(ncn2[C@@H]2CC[C@H](CO)O2)c(=O)[nH]1					>100 µM
Nc1ncnc2c1ncn2[C@H]1CC[C@@H](CO)O1	LAV		RT activity		0.5 µM
COC[C@@H](c1ccc(C(F)(F)F)cc1)N1CCN(C2(C)CCN(C(=O)c3c(C)ncnc3C)CC2)C[C@@H]1C		G516V F519I	luciferase		0.0002 µM
Nc1nc(=O)n([C@@H]2CS[C@H](CO)O2)cc1F	M6 (AZT-resistant)		RT activity		0.002 µM
C=CCN(C(=O)Cc1ccc(S(N)(=O)=O)cc1)C1CCN(C[C@H]2CN(C(=O)C3CCCC3)C[C@]2(O)c2ccccc2)CC1			p24		<0.005 µM
O=C1N(Cc2ccc(CO)cc2)[C@H](Cc2ccccc2)[C@H](O)[C@@H](O)[C@@H](Cc2ccccc2)N1Cc1ccc(CO)cc1	B clinical isolate		p24		0.04 µM
CCc1cc(NCc2nc3c(Cl)ccc(Cl)c3o2)c(=O)[nH]c1C	Clinical isolate (RT K70R)	RT-K70R	p24		<0.2 µM
Cc1cn([C@@H]2C[C@@H](N=[N+]=[N-])[C@H](COP(=O)(O)OC[C@H]3O[C@@H](n4cc(C)c(=O)[nH]c4=O)C[C@@H]3N=[N+]=[N-])O2)c(=O)[nH]c1=O	LAV		RT activity		0.01 µM
CC(C)Nc1cccnc1N1CCN(C(=O)c2cc3cc(NS(C)(=O)=O)ccc3[nH]2)CC1	BaL	RT-V106A	p24		2.1 µM
CN(C[C@@H](CCN1CCC2(CC1)CS(=O)c1ccccc12)c1cccc(Cl)c1)S(=O)(=O)c1ccccc1	YU-2 (M-tropic)		p24		<12.5 µM
C=CCN(C(=O)NCc1ccc(S(N)(=O)=O)cc1)C1CC2CCC(C1)N2C[C@H]1CN(C(=O)C2CC2)C[C@]1(O)c1cccc(F)c1			p24		0.051–0.099 µM
Cc1cn([C@@H]2C[C@@H](N=[N+]=[N-])[C@H](CO)O2)c(=O)[nH]c1=O	LAV		RT activity		>100 µM
CC(C)CN(C[C@@H](O)[C@H](Cc1ccccc1)NC(=O)O[C@H]1CCOC1)S(=O)(=O)c1ccc(N)cc1	1002-60 PI-resistant	PR-L10I M46I I54V L63P V82F L90M	RT activity		0.194 µM
[B-][P@](=O)(OC[C@H]1O[C@@H](n2cc(C)c(=O)[nH]c2=O)C[C@@H]1N=[N+]=[N-])OP(=O)(O)C(F)(F)P(=O)(O)O	WEJO Clinical isolates		p24		0.08 µM
CC[C@]1(c2ccccc2)Oc2cccnc2-n2cccc2C1=O	Clinical isolate wild type		RT activity		0.04 µM
O=c1[nH]cnc2c1ncn2[C@@H]1CC[C@H](CO)O1					>100 µM
Cc1ccnc2c1NC(=O)c1cccnc1N2C1CC1	MDR (RT M41L K103N T215Y) Clinical isolate	RT-M41L K103N T215Y	p24		14.8 µM
CCN(C(=O)OCc1ccccc1)C1CCN(CCC(CN(C)S(=O)(=O)c2ccccc2)c2ccccc2)CC1	YU-2 (M-tropic)		p24		<12.5 µM
COc1cccc(C[C@H](NC(=O)c2cccc(O)c2C)[C@H](O)C(=O)N2CSC(C)(C)[C@H]2C(=O)NCc2c(C)cccc2C)c1	052-52 PI-resistant	PR-L10R M46I L63P A71V V82T I84V	RT activity		<0.001 µM
Nc1ncnc2c1c1c(=O)[nH]c(=O)[nH]c1n2[C@@H]1O[C@H](COC(=O)c2ccccc2)[C@@H](O)[C@H]1O	LAI				5.7 µM
C=CCN(C(=O)OCc1ccc(S(=O)ON)cc1)C1CCN([C@H]2CN(C(=O)C3CCCC3)C[C@]2(O)c2ccccc2)CC1			p24 / ELISA		<0.005 µM
Cc1c(O)cccc1C(=O)N[C@@H](CSc1ccccc1)[C@H](O)CN1C[C@H]2CCCC[C@H]2C[C@H]1C(=O)NC(C)(C)C	052-52 PI-resistant	PR-L10R M46I L63P A71V V82T I84V	RT activity		0.176 µM

Repeating the final 6 entries:

structure	strain or isolate	changes	method	setting	result
Cc1ccnc2c1NC(=O)c1cccnc1N2C1CC1	MDR (RT M41L K103N T215Y) Clinical isolate	RT-M41L K103N T215Y	p24		14.8 µM
CCN(C(=O)OCc1ccccc1)C1CCN(CCC(CN(C)S(=O)(=O)c2ccccc2)c2ccccc2)CC1	YU-2 (M-tropic)		p24		<12.5 µM
COc1cccc(C[C@H](NC(=O)c2cccc(O)c2C)[C@H](O)C(=O)N2CSC(C)(C)[C@H]2C(=O)NCc2c(C)cccc2C)c1	052-52 PI-resistant	PR-L10R M46I L63P A71V V82T I84V	RT activity		<0.001 µM
Nc1ncnc2c1c1c(=O)[nH]c(=O)[nH]c1n2[C@@H]1O[C@H](COC(=O)c2ccccc2)[C@@H](O)[C@H]1O	LAI				5.7 µM
C=CCN(C(=O)OCc1ccc(S(=O)ON)cc1)C1CCN([C@H]2CN(C(=O)C3CCCC3)C[C@]2(O)c2ccccc2)CC1			p24 / ELISA		<0.005 µM
Cc1c(O)cccc1C(=O)N[C@@H](CSc1ccccc1)[C@H](O)CN1C[C@H]2CCCC[C@H]2C[C@H]1C(=O)NC(C)(C)C	052-52 PI-resistant	PR-L10R M46I L63P A71V V82T I84V	RT activity		0.176 µM

a–b is a range or a potency band. Neighbouring rows are from separate reports. An empty or dashed field is not shown.